Results of unrelated studies side by side (data: NIAID ChemDB).

Common to all: target-level tests; target: CCR5; read-out: IC50

ICn: concentration for n% inhibition. Lines come from different laboratories, so protocols vary.

smiles | method | value
CS(=O)(=O)N1CCCC(C(=O)N(CCCN2CCC(Cc3ccccc3)CC2)c2ccccc2)C1 | radiometric | 0.18 µM
N#Cc1ccc(NC(=O)N(CCCN2CCC(Cc3ccc(F)cc3)CC2)c2ccccc2)cc1 | radiometric | 0.015 µM
O=C(c1ccccc1)N1CCC(C(=O)N(CCCN2CCC(Cc3ccccc3)CC2)c2ccccc2)CC1 | radiometric | 0.033 µM
Cc1ccc(-c2ccc3c(c2)C=C(C(=O)Nc2ccc(CP4(=O)OCCCO4)cc2)CCO3)cc1 | radiometric | 0.4 µM
CCCCOCCOc1ccc(-c2ccc3c(c2)C=C(C(=O)Nc2ccc(S(=O)Cc4cccnc4)cc2)CCN3CC(C)C)cc1 | radiometric | 0.015 µM
Cc1ccnc(C)c1C(=O)N1CCC(C)(N2CCN([C@@H](C)c3ccc(C(F)(F)F)cc3)[C@@H](C)C2)CC1 | fluorescence | <0.1 µM
CCCCOCCOc1ccc(-c2ccc3c(c2)C=C(C(=O)Nc2ccc(CS(=O)c4ccccn4)cc2)CCN3CCC)cc1 | radiometric | 0.25 µM
CCCCOCCOc1ccc(-c2ccc3c(c2)C=C(C(=O)Nc2ccc([C@H](O)c4cccc[n+]4[O-])c(C(F)(F)F)c2)CCN3CC(C)C)cc1 | radiometric | 0.0072 µM
Cc1ccc(-c2ccc3c(c2)C=C(C(=O)Nc2ccc(CN(C)C4CCOCC4)cc2)CCN3C)cc1 | radiometric | 0.13 µM
CC(=O)N1CCC(C(=O)N(CCCN2CCC(Cc3ccc(F)cc3)CC2)c2ccc(C)c(Cl)c2)CC1 | radiometric | 0.00029 µM
CCCCOCCOc1ccc(-c2ccc3c(c2)C=C(C(=O)Nc2ccc(S(=O)Cc4cncn4CCC)cc2)CCN3CCC)cc1 | radiometric | 0.0043 µM
CC(=O)N1CCC(C(=O)N(CCCN2CCC(Cc3ccc(F)cc3)CC2)c2cccc(Cl)c2)CC1 | radiometric | 0.003 µM
CN(C(=O)N(CCCN1CCC(Cc2ccccc2)CC1)c1ccccc1)c1ccccc1 | radiometric | 6.6 µM
CCN(C(=O)Cc1ccc(S(C)(=O)=O)cc1)C1CCN(CC[C@H](NC(=O)OCC(Cl)(Cl)Cl)c2ccccc2)CC1 | fluorescence | <50 µM
CCCCOCCOc1ccc(-c2ccc3c(c2)C=C(C(=O)Nc2ccc(S(=O)Cc4nccn4CC)cc2)CCN3CC(C)C)cc1 | radiometric | 0.0066 µM
CCCCOCCOc1ccc(-c2ccc3c(c2)C=C(C(=O)Nc2ccc([C@H](O)c4cccc[n+]4[O-])cc2)CCS3(=O)=O)cc1 | radiometric | 0.43 µM
CC(=O)N(CCCN1CCC(Cc2ccccc2)CC1)c1ccccc1 | radiometric | 0.29 µM
CCN(C(=O)Cc1ccc(S(C)(=O)=O)cc1)C1CCN(CC[C@H](NC(=O)OCC(C)C)c2ccccc2)CC1 | fluorescence | <50 µM
O=C(c1ccccc1)N1CCC(C(=O)N(CCCN2CCC(Cc3ccccc3)CC2)c2ccccc2)CC1 | radiometric | 0.033 µM
CCN(C(=O)Cc1ccc(S(C)(=O)=O)cc1)C1CCN(CCC(c2ccccc2)N2CCN(S(=O)(=O)c3cccs3)CC2)CC1 | radiometric | 0.002 µM
CCCCOCCOc1ccc(-c2ccc3c(c2)C=C(C(=O)Nc2ccc([C@H](O)c4cccc[n+]4[O-])cc2)CCN3CC(C)C)cc1 | radiometric | 0.015 µM
CCN(C(=O)Cc1ccc(S(C)(=O)=O)cc1)C1CCN(CCC(c2ccccc2)C2CCN(S(=O)(=O)CC)CC2)CC1 | radiometric | 0.003 µM
Cc1ccc(NC(=O)N(CCCN2CCC(Cc3ccc(F)cc3)CC2)c2ccccc2)cc1 | radiometric | 0.0066 µM
O=C(C1CCCNC1)N(CCCN1CCC(Cc2ccccc2)CC1)c1ccccc1 | radiometric | 0.78 µM
Cc1ccc(-c2ccc3c(c2)C=C(C(=O)Nc2ccc(CN4CCCCC4)cc2)CCC3)cc1 | radiometric | 2.6 µM
COc1ccc(CC2CCN(CCCN(C(=O)C3CCN(S(C)(=O)=O)CC3)c3ccc(Cl)c(Cl)c3)CC2)cc1 | radiometric | 0.0079 µM
CCCCOCCOc1ccc(-c2ccc3c(c2)C=C(C(=O)Nc2ccc(S(=O)Cc4nccn4CCC)cc2)CCN3CC(C)C)cc1 | radiometric | 0.0043 µM
Cc1ccc(-c2ccc3c(c2)C=C(C(=O)Nc2ccc(C[N+](C)(C)C4CCOCC4)cc2)CCC3)cc1 | radiometric | 0.0014 µM
CCN(C(=O)Cc1ccc(S(C)(=O)=O)cc1)C1CCN(CC[C@H](NC(=O)Oc2ccccc2)c2ccccc2)CC1 | fluorescence | <50 µM
O=C(c1ccccc1)N(CCCN1CCC(Cc2ccccc2)CC1)c1ccccc1 | radiometric | 2.3 µM
CCCCOCCOc1ccc(-c2ccc3c(c2)C=C(C(=O)Nc2ccc(C(O)c4cccc[n+]4[O-])c(Cl)c2)CCN3CC(C)C)cc1 | radiometric | 0.024 µM
CCCCOCCOc1ccc(-c2ccc3c(c2)C=C(C(=O)Nc2ccc([S@](=O)Cc4cncn4CCC)cc2)CCN3CCC)cc1 | radiometric | 0.0083 µM
CCN(C(=O)Cc1ccc(S(C)(=O)=O)cc1)C1CCN(CCC(c2ccccc2)N2CCC(C(C)=O)CC2)CC1 | radiometric | 0.309 µM
CCN(C(=O)Cc1ccc(S(C)(=O)=O)cc1)C1CCN(CC[C@H](NC(=O)C2CCN(S(=O)(=O)CC)CC2)c2ccccc2)CC1 | fluorescence | <50 µM
Cc1ccc(-c2ccc3c(c2)C=C(C(=O)Nc2ccc(CN(C)C4CCSCC4)cc2)CCO3)cc1 | radiometric | 1.6 µM
CN1CC(C(=O)N(CCN2CCC(C(=O)c3ccc(F)cc3)CC2)c2ccccc2)CC1=O | radiometric | >10 µM
CCCCOCCOc1ccc(-c2ccc3c(c2)C=C(C(=O)Nc2ccc(C(O)c4cccc[n+]4[O-])c(OC)c2)CCN3CC(C)C)cc1 | radiometric | 0.022 µM
CCN(C(=O)Cc1ccc(S(C)(=O)=O)cc1)C1CCN(CCC(c2cccc(F)c2)C2CCN(C(=O)Nc3ccccc3)CC2)CC1 | radiometric | 0.006 µM

The last 4 rows once more:

smiles,method,value
Cc1ccc(-c2ccc3c(c2)C=C(C(=O)Nc2ccc(CN(C)C4CCSCC4)cc2)CCO3)cc1,radiometric,1.6 µM
CN1CC(C(=O)N(CCN2CCC(C(=O)c3ccc(F)cc3)CC2)c2ccccc2)CC1=O,radiometric,>10 µM
CCCCOCCOc1ccc(-c2ccc3c(c2)C=C(C(=O)Nc2ccc(C(O)c4cccc[n+]4[O-])c(OC)c2)CCN3CC(C)C)cc1,radiometric,0.022 µM
CCN(C(=O)Cc1ccc(S(C)(=O)=O)cc1)C1CCN(CCC(c2cccc(F)c2)C2CCN(C(=O)Nc3ccccc3)CC2)CC1,radiometric,0.006 µM